Results published in BindingDB's records for 31194549.

By UniProt entry, the sequences of proteins in these tests, tags left out. Residues count along the entry.
UniProt P12390, 25-500 limits assumed: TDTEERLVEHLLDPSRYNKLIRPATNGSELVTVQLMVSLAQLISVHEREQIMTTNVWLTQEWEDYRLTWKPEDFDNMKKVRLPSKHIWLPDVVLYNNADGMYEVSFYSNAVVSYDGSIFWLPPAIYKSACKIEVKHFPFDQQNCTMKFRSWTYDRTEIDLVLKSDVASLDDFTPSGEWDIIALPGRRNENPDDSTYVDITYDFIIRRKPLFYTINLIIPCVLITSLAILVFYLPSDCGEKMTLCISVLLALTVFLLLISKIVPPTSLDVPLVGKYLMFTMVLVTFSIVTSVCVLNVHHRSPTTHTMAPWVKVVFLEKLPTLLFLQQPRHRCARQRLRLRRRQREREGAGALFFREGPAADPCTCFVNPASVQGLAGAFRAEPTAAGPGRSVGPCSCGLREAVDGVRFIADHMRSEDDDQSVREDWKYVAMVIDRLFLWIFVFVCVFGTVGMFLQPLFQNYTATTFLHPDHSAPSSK
UniProt P04757, 26-499 limits assumed: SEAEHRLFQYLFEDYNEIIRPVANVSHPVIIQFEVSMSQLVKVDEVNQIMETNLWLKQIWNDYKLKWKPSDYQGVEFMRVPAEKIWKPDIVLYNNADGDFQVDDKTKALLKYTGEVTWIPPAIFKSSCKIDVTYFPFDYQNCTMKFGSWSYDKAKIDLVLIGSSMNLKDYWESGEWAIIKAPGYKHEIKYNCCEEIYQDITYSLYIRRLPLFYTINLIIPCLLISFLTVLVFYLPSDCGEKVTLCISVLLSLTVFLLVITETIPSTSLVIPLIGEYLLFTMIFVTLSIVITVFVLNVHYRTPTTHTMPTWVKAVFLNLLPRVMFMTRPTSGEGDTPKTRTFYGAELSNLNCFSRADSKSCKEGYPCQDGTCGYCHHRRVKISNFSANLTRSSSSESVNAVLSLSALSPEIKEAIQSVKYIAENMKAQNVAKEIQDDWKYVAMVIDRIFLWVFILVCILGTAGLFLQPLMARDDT
UniProt Q05941, 23-502 limits assumed: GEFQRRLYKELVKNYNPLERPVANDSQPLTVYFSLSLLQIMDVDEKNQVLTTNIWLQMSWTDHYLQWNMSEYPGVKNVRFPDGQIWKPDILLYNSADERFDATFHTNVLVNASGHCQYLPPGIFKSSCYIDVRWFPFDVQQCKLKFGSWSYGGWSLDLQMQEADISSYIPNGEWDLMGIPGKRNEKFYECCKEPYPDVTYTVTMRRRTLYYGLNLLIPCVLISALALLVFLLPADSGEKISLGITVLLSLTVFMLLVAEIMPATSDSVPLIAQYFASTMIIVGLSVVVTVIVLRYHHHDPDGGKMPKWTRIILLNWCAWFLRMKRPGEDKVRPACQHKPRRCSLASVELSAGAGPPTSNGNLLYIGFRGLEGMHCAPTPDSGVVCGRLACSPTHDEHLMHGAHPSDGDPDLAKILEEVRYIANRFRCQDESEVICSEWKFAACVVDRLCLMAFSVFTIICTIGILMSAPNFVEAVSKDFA
UniProt P09483, 31-630 limits assumed: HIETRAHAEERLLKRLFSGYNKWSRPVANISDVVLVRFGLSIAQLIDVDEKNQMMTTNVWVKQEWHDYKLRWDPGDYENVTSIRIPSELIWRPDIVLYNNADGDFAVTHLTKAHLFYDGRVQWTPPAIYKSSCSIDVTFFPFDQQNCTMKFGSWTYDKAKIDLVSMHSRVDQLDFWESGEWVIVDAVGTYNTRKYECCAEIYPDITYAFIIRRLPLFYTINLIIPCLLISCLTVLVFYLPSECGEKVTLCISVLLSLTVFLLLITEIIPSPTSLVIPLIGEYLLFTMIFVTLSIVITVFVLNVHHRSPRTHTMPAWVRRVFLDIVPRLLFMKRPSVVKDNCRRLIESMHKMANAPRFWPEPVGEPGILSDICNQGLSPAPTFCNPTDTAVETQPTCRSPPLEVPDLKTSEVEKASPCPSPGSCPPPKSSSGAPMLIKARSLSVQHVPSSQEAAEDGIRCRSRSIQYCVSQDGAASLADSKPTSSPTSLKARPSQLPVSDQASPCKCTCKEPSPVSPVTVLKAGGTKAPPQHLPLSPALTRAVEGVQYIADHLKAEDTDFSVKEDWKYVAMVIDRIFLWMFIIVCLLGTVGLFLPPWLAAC
UniProt P12392, 21-495 limits assumed: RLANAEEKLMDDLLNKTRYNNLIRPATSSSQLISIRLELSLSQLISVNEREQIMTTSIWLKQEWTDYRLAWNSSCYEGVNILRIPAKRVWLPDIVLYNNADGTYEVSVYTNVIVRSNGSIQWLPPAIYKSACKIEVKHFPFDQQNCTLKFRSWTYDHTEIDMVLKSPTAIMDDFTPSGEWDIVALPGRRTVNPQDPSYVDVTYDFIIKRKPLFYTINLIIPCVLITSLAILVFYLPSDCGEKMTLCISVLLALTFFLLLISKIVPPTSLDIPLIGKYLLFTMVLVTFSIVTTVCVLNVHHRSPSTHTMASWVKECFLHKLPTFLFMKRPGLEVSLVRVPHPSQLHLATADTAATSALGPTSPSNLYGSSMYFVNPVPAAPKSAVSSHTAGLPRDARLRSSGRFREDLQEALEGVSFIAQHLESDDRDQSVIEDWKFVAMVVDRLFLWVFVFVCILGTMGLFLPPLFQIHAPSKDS

Tests used:
[1] = biological target: Neuronal acetylcholine receptor subunit alpha-3/beta-2 (Rattus norvegicus, UniProt P12390+P04757)
[2] = biological target: Neuronal acetylcholine receptor subunit alpha-7 (Rattus norvegicus, UniProt Q05941)
[3] = biological target: Neuronal acetylcholine receptor subunit alpha-4/beta-2 (Rattus norvegicus, UniProt P09483+P12390)
[4] = biological target: Neuronal acetylcholine receptor subunit alpha-3/beta-4 (Rattus norvegicus, UniProt P04757+P12392)

SMILES	IC50 [1]	IC50 [2]	IC50 [3]	IC50 [4]
CC[C@H](C)[C@@H]1NC(=O)[C@H](Cc2cnc[nH]2)NC(=O)[C@@H]2CSSC[C@H](NC(=O)CN)C(=O)N[C@@H](CSSC[C@@H](C(N)=O)NC(=O)[C@H](CC(C)C)NC(=O)[C@H](CCC(=O)O)NC(=O)[C@@H]3CCCN3C(=O)[C@H](Cc3cnc[nH]3)NC(=O)[C@H](CCC(=O)O)NC1=O)C(=O)N[C@@H](CO)C(=O)N[C@@H](Cc1cnc[nH]1)C(=O)N1CCC[C@H]1C(=O)N[C@@H](C)C(=O)N2	1.2 nM			
CC[C@H](C)[C@@H]1NC(=O)[C@H](Cc2cnc[nH]2)NC(=O)[C@@H]2CSSC[C@H](NC(=O)CN)C(=O)N[C@@H](CSSC[C@@H](C(N)=O)NC(=O)[C@H](CC(C)C)NC(=O)[C@H](CCC(=O)O)NC(=O)[C@@H]3CCCN3C(=O)[C@H](Cc3cnc[nH]3)NC(=O)[C@H](CC(N)=O)NC1=O)C(=O)N[C@@H](CO)C(=O)N[C@@H](Cc1cnc[nH]1)C(=O)N1CCC[C@H]1C(=O)N[C@@H](C)C(=O)N2	0.29 nM			
CC[C@H](C)[C@@H]1NC(=O)[C@H](Cc2cnc[nH]2)NC(=O)[C@@H]2CSSC[C@H](NC(=O)CN)C(=O)N[C@@H](CSSC[C@@H](C(N)=O)NC(=O)[C@H](CC(C)C)NC(=O)[C@H](CCC(=O)O)NC(=O)[C@@H]3CCCN3C(=O)[C@H](Cc3cnc[nH]3)NC(=O)[C@H](CCCC(=O)O)NC1=O)C(=O)N[C@@H](CO)C(=O)N[C@@H](Cc1cnc[nH]1)C(=O)N1CCC[C@H]1C(=O)N[C@@H](C)C(=O)N2	3 nM			
CC[C@H](C)[C@@H]1NC(=O)[C@H](CCC(=O)O)NC(=O)[C@@H]2CCCN2C(=O)[C@H](Cc2cnc[nH]2)NC(=O)[C@H](CCCCC(=O)O)NC(=O)[C@H]([C@@H](C)CC)NC(=O)[C@H](Cc2cnc[nH]2)NC(=O)[C@@H]2CSSC[C@H](NC(=O)CN)C(=O)N[C@@H](CSSC[C@@H](C(N)=O)NC1=O)C(=O)N[C@@H](CO)C(=O)N[C@@H](Cc1cnc[nH]1)C(=O)N1CCC[C@H]1C(=O)N[C@@H](C)C(=O)N2	0.57 nM	35 nM	572 nM	341 nM
CC[C@H](C)[C@@H]1NC(=O)[C@H](Cc2cnc[nH]2)NC(=O)[C@@H]2CSSC[C@H](NC(=O)CN)C(=O)N[C@@H](CSSC[C@@H](C(N)=O)NC(=O)[C@H](CC(C)C)NC(=O)[C@H](CCC(=O)O)NC(=O)[C@@H]3CCCN3C(=O)[C@H](Cc3cnc[nH]3)NC(=O)[C@H](CCCCCC(=O)O)NC1=O)C(=O)N[C@@H](CO)C(=O)N[C@@H](Cc1cnc[nH]1)C(=O)N1CCC[C@H]1C(=O)N[C@@H](C)C(=O)N2	1.3 nM			
CC[C@H](C)[C@@H]1NC(=O)[C@H](CCC(=O)O)NC(=O)[C@@H]2CCCN2C(=O)[C@H](Cc2cnc[nH]2)NC(=O)[C@H](CC(N)=O)NC(=O)[C@H]([C@@H](C)CC)NC(=O)[C@H](Cc2cnc[nH]2)NC(=O)[C@@H]2CSSC[C@H](NC(=O)CN)C(=O)N[C@@H](CSSC[C@@H](C(N)=O)NC1=O)C(=O)N[C@@H](CO)C(=O)N[C@@H](Cc1cnc[nH]1)C(=O)N1CCC[C@H]1C(=O)N[C@@H](C)C(=O)N2	0.28 nM			
CC[C@H](C)[C@@H]1NC(=O)[C@H](Cc2cnc[nH]2)NC(=O)[C@@H]2CSSC[C@H](NC(=O)CN)C(=O)N[C@@H](CSSC[C@@H](C(N)=O)NC(=O)[C@H](CC(C)C)NC(=O)[C@H](CCC(=O)O)NC(=O)[C@@H]3CCCN3C(=O)[C@H](Cc3cnc[nH]3)NC(=O)[C@H](CC(=O)O)NC1=O)C(=O)N[C@@H](CO)C(=O)N[C@@H](Cc1cnc[nH]1)C(=O)N1CCC[C@H]1C(=O)N[C@@H](C)C(=O)N2	1.7 nM			
CC[C@H](C)[C@@H]1NC(=O)[C@H](Cc2cnc[nH]2)NC(=O)[C@@H]2CSSC[C@H](NC(=O)CN)C(=O)N[C@@H](CSSC[C@@H](C(N)=O)NC(=O)[C@H](CC(C)C)NC(=O)[C@H](CCC(=O)O)NC(=O)[C@@H]3CCCN3C(=O)[C@H](Cc3cnc[nH]3)NC(=O)[C@H](CCCCC(=O)O)NC1=O)C(=O)N[C@@H](CO)C(=O)N[C@@H](Cc1cnc[nH]1)C(=O)N1CCC[C@H]1C(=O)N[C@@H](C)C(=O)N2	0.38 nM	32 nM	280 nM	501 nM
